A mixed list of measured activities; the numbers were collected in NIAID ChemDB.

Shared fields: growth or infection tests; agent: Candida albicans

A number after MIC or MFC names an inhibition level or a share of isolates. Lines come from different laboratories, so protocols vary. An empty or dashed field is not shown.

SMILES,strain,endpoint,read by,value
CO[C@@H](n1cncn1)[C@](O)(Cn1cncn1)c1ccccc1F,-,MIC,-,>100 µg/mL
CCOC(=O)Cc1csc(NC(=O)CSC(=S)N2CCCC2)n1,ATCC 10231,MIC,-,156 µg/mL
CS[C@@H](n1cncn1)[C@@](O)(Cn1cncn1)c1ccc(F)cc1,-,MIC,-,>100 µg/mL
CCOC(=O)C1C(c2cc3cc(Cl)ccc3nc2Cl)C2=C(CCCC2=O)N(c2cccnc2)C1N,MTCC 227,MIC99,broth dilution,>1000 µg/mL
CCc1ccc(C(=O)Nc2ccc(Cc3nc4ccccc4s3)cc2)cc1,ATCC 10231,MIC100,broth dilution,25 µg/mL
CCOC(=O)C1C(c2cc3cc(C)ccc3nc2Cl)C2=C(CCCC2=O)N(c2cccnc2)C1N,MTCC 227,MIC99,broth dilution,1000 µg/mL
O=C(Nc1ccc(-c2nc3ccccc3s2)cc1)c1ccccc1,ATCC 10231,MIC100,broth dilution,25 µg/mL
CC(C)[C@@H](C)[C@H](O)[C@@H]1CC23CC(=O)[C@]4(O)C(=C2CC[C@@H]3[C@@H]1C)C=C[C@]1(O)CC(=O)CC[C@]41C,IFM 40009,MIC,-,>80 µg/mL
C=C1CCC(=O)C(C)(C)C1CCc1ccc2c(c1)C(=O)C=CC2=O,-,MIC,-,3 µg/mL
Cc1cc(-c2c(N=O)c(C)nn2CCO)no1,-,MFC,-,66 µM
CO[C@@H](n1cnc(C)c1)[C@](O)(Cn1cncn1)c1ccc(Cl)cc1,-,MIC,-,>100 µg/mL
CCCCCCCCCCCCCCC1=NCCCC1,ATCC 90028,MIC,-,20 µg/mL
CC(N1CCN(c2ccc(-n3cnnn3)cc2)C1=O)C(O)(Cn1cncn1)c1ccc(F)cc1F,TIMM1756,MIC,-,0.008 µg/mL
Cc1cc(-c2n[nH]c(C)c2N=O)no1,-,MIC,-,>200 µM
CO[C@@H](n1cncn1)[C@](O)(Cn1cncn1)c1ccc(Cl)cc1Cl,-,MIC,-,>100 µg/mL
CCC(C)CC(C)CCCCCCCCC(=O)NC1CCCNC(=O)[C@@H]2[C@@H](O)[C@@H](C)CN2C(=O)[C@H]([C@H](O)CC(N)=O)NC(=O)[C@H](CCc2ccc(O)cc2)NC(=O)[C@@H]2C[C@@H](O)CN2C(=O)[C@H]([C@@H](C)O)NC1=O,MY1208,MFC,-,0.5 µg/mL
CCOC(=O)C1C(c2cc3ccccc3nc2Cl)C2=C(CCCC2=O)N(c2cccnc2)C1N,MTCC 227,MIC99,broth dilution,250 µg/mL
CCCCCCCCCCCCCCCC1=NCCCC1,ATCC 90028,MIC,-,20 µg/mL
CC(N1CCN(c2ccc(-n3nccn3)cc2)C1=O)C(O)(Cn1cncn1)c1ccc(F)cc1F,TA,MIC,-,<0.008 µg/mL
CC[C@@H]1OC(=O)[C@H](C)C(=O)C(O)(CO)C/C(SC)=C/[C@@H](C)Cc2cccc1c2,ATCC 90028,MIC,-,>64 µg/mL
CC(n1ccn(-c2ccc(-n3ccnc3)cc2)c1=O)C(O)(Cn1cncn1)c1ccc(F)cc1F,TA,MIC,-,0.004 µg/mL
Nc1nnc2c(cnc3ccccc32)n1,VM-71,MIC,-,30 µg/mL
N=C(N)c1ccc2nc(-c3ccc(-c4nc5ccc(C(=N)N)cc5[nH]4)[nH]3)[nH]c2c1,A39,MIC,-,0.78 µg/mL
O=C(Cc1ccc([N+](=O)[O-])cc1)Nc1ccc(Cc2nc3ccccc3s2)cc1,ATCC 10231,MIC100,broth dilution,25 µg/mL
CC(n1ncn(-c2ccc(-n3ncnn3)cc2)c1=O)C(O)(Cn1cncn1)c1ccc(F)cc1F,TA,MIC,-,0.002 µg/mL
C=C1/C=C(\C)[C@H](CC)OC(=O)[C@H](C)C(=O)C(O)(CO)C/C(C)=C/[C@@H](C)C1,MY1005,MIC,-,>200 µg/mL
COc1ccc2nc(Cl)c(C3C4=C(CCCC4=O)N(c4cccnc4)C(N)C3C#N)cc2c1,MTCC 227,MIC99,broth dilution,1000 µg/mL
CCC(C)CC(C)CCCCCCCCC(=O)NC1CCCNC(=O)[C@@H]2[C@@H](O)CCN2C(=O)[C@H]([C@H](O)CC(N)=O)NC(=O)[C@H](C(O)[C@H](O)c2ccc(O)cc2)NC(=O)[C@@H]2C[C@@H](O)CN2C(=O)[C@H]([C@@H](C)O)NC1=O,MY1750,MFC,-,16 µg/mL
OC(c1cc(-c2ccc(C(F)(F)F)cc2)nc(-c2ccc(C(F)(F)F)cc2)c1)C1CCCCN1,ATCC 90028,MIC,-,0.4 µg/mL
O=C1C2=C(OC(CI)C2)C(=O)c2ccccc21,Clinical isolate,MIC,broth dilution,10.7 µg/mL
CO[C@@H](n1cncn1)[C@](O)(Cn1cccn1)c1ccc(F)cc1F,-,MIC,-,>100 µg/mL
O=C(Nc1ccc(Cc2nc3ccccc3s2)cc1)c1ccc(F)cc1,ATCC 10231,MIC100,broth dilution,25 µg/mL
CO[C@@H](n1cncn1)[C@](O)(Cn1cccn1)c1ccc(Cl)cc1,-,MIC,-,>100 µg/mL
Nc1ncccc1-c1cc(Cc2ccc(COc3ccccn3)cc2)no1,-,MIC90,broth dilution,0.06 µg/mL
Cc1cc(-c2nn(C)c(C)c2N=O)no1,-,MIC,-,>200 µM
C[C@H](N1CCN(c2ccc(-n3cccn3)cc2)C1=O)[C@@](O)(Cn1cncn1)c1ccc(F)cc1F,TIMM1850,MIC,-,0.004 µg/mL
CS[C@@H](n1cncn1)[C@](O)(Cn1cncn1)c1ccc(Cl)cc1Cl,-,MIC,-,>100 µg/mL
CC(n1ccn(-c2ccc(-n3ccnn3)cc2)c1=O)C(O)(Cn1cncn1)c1ccc(F)cc1F,TA,MIC,-,<0.008 µg/mL
C[C@H]1[C@H](O)[C@@H](C)/C=C/C=C/C=C/C=C/C=C/C=C/C=C/[C@H](O[C@@H]2O[C@H](C)[C@@H](O)[C@H](N)[C@@H]2O)C[C@@H]2O[C@](O)(C[C@@H](O)C[C@@H](O)CC[C@H](O)[C@@H](O)C[C@@H](O)CC(=O)O[C@H]1C)C[C@H](O)[C@H]2C(=O)O,ATCC 10261,MIC90,broth dilution / turbidity,0.5 µg/mL
CCC(C)CC(C)CCCCCCCCC(=O)NC1CCCNC(=O)[C@@H]2[C@@H](O)[C@@H](C)CN2C(=O)[C@H]([C@H](O)CC(N)=O)NC(=O)[C@H](C(O)[C@H](O)c2ccc(O)cc2)NC(=O)[C@@H]2C[C@@H](O)CN2C(=O)[C@H]([C@@H](C)O)NC1=O,MY1055,MFC,-,2 µg/mL
CCn1nc(-c2cc(C)on2)cc1C,-,MIC,-,>200 µM
Clc1nnc2c(cnc3ccccc32)n1,VM-71,MIC,-,≤10 µg/mL
C[C@@H](c1ncncc1F)[C@](O)(Cn1cncn1)c1ccc(F)cc1F,8649,MIC,broth dilution,<0.008 µg/mL

A second listing of 3 rows from above:

SMILES | strain | endpoint | read by | value
CO[C@@H](n1cncn1)[C@](O)(Cn1cccn1)c1ccc(Cl)cc1 | - | MIC | - | >100 µg/mL
CC(C)[C@@H](C)[C@H](O)[C@@H]1CC23CC(=O)[C@]4(O)C(=C2CC[C@@H]3[C@@H]1C)C=C[C@]1(O)CC(=O)CC[C@]41C | IFM 40009 | MIC | - | >80 µg/mL
CO[C@@H](n1cncn1)[C@](O)(Cn1cccn1)c1ccc(F)cc1F | - | MIC | - | >100 µg/mL